Results from patent publication US20230348573A1 (KEIO UNIVERSITY, published 2023).

B1: Ab114 (antibody, V domains shown)
VH: EVQLVESGGGLIQPGGSLRLSCAASGFTVSSNYMNWVRQAPGKGLEWVSVIYSGGSTFYADSVKGRFTISRDNSKNTLYLQMNSLRVEDTAVYYCARDLDTQGGMDVWGQGTTVTVSS
VL: EIVLTQSPGSLSLSPGERATLSCRASQGVSSSYLAWYQHKPGQAPRLLIFGASTRATGIPDRFSGSGSGTDFTLTISRLEPEDFAVYYCQLYGSSPGTFGQGTKLEIK
B2: Ab709TK (antibody, V domains shown)
VH: QVQLVESGGGVVQPGKSLRLSCAASGFTFSSYAMHWVRLAPGKGLEWVAVISPDGKNKYYVDSVKGRSTISRDNSKNTLYLLMNSLRAEDTAVYYCATTQSLWFGQFYYIYGMDVWGQGTTVTVSS
VL: QSVLTQPHSVSESPGKTITISCTGSSGSIASNYVQWYQQRPGSAPTTVIYEDTERPSGVPDRFSGSIDSSSNSASLTISGLKTEDEADYYCQSYDSNNVVFGGGTKLTVL
B3: Ab765 (antibody, V domains shown)
VH: QVQLVESGGGVVQPGRSLRLSCAASGFTFSDYAIHWVRQAPGRGLEPVALISYDGNNKYYADSVKGRFTISRDNSKNVLYLQMNSLRADDTAVYYCARDAEGGWVAALDYWGQGTLVTVSS
VL: QSALTQPRSVSGSPGQSVTISCTGTSSDVGGYNYVSWYQHHPGKAPKVMIYEVSKRPSGVPDRFSGSKSGTTASLTISGLQAEDEADYYCCSYAGTYPYVFGTGTKVTVL
B4: Ab847 (antibody, V domains shown)
VH: EVQLVQSGAEVKKPGASVKVSCKASGYTFTSYDIIWVRQATGQGLEWMGWMDPSRGTTGYAQTFQGRVTMTRDTSISTAYLELNSLTSEDTAVYYCVAHIVVLDRWFDPWGQGTLVTVSS
VL: DIVMTQSPSSLSASVGDRVTITCQASQDIGNFLNWCQQKPGQAPKVLIYGASNLETGVPSRFSGSGSGTDFTFTISSLQPEDIATYYCQHYDNFPPRFTFGQGTKLDIK
B5: Ab188 (antibody, V domains shown)
VH: EVQLVESGGGLVQPGGSLRLSCAASGFTFINYKMNWVRQAPGKGLEWVSYISSGSDAIYYADSVKGRFTISRDNAKNSLYLQMNSLRDEDTALYYCARGGGYNYGECMDVWGQGTTVTVSS
VL: not shown
B6: Ab326 (antibody, V domains shown)
VH: EVQLVESGGGVVQPGRSLRLSCAASGFTFSHYPMHWVRQAPGRGLEWVAVISYDGSNQHYVDSVKGRFTISRDNSKNTLYLQMNSLRAEDTAVYFCASLITMIRGVPDYWGQGTLVTVSS
VL: DIQMTQSPSSLSASVGDRVTITCRASQSISNYLNWYQQKPGKAPNLLIFAASSLQSGVPSRFSGSGSGTEFTLTISSLQPEDFAAYYCLQTYSTPRTFGQGTRLEIK
B7: Ab445 (antibody, V domains shown)
VH: EVQLVESGGGVVQPGTSPRLSCAASGFTFSNSGMHWVRQAPGKGLEWVAVIWYDGSKKYYVDSVKGRFTISRDNSKNTLYLQMNSLRAEDTAVYYCARDGTVAVRGVMNPFFDYWGQGTLVTVSS
VL: DIQLTQSPSSLSASVGDRVTITCQASQDISNYLNWYQQIPGKAPKLLIYDASNLETGVPSRFSGSGSGTDFTFTISSLQPEDIATYYCQQYDNLPYTFGQGTKLEIK
B8: Ab863 (antibody, V domains shown)
VH: EVQLVQSGAEVKKPGASVKVSCQASGYTFITYYMHWVRQAPGQGLEWMGIINPDGGSISYAQKFQGRVTMTRDTSTSTVYMELSSLRSEDTAVYYCARGLSPTFSSSWFDNWGLGTLVTVSS
VL: DVVMTQSPATLSVSPGERATLSCRASQSVSSNLAWYQQKPGQAPRLLIYGASTRDTGIPARFSGSGSGTEFTLTISSLQSEDFAVYFCQQYKNWLLTFGGGTKVEIK
B9: Ab336 (antibody, V domains shown)
VH: QVQLQQSGPGLVKPSETLSLTCTVSGGSISSYYWTWIRQPPGKGLEWIAYISYSGSTNYNPSLRSRVTISVDTSKNQFSLKLSSVTAADTAVYYCARDYYYDNSGYPDSYYGMDVWGQGTTVTVSS
VL: DIQLTQSPSTLSASVGDRVTITCRASQRISSWLAWYQQKPGKAPKLLIYKASTLQSGVPSRFSGSGSGTEFTLTISSLQPDDFATYYCQQYNSFSWTFGQGTKVEIK
B10: Ab302 (antibody, V domains shown)
VH: EVQLVESGGGLVQPGGSLRLSCAASGVIVSRNYMTWVRQAPGKGLEWVSVIYSGGSTFYADSVKGRFTISRDNSKNTLYLQMNSLRAEDTAVYYCARDRGEDVFDIWGQGTMVTVSS
VL: DIQLTQSPSSLSASVGDRVTITCRASQGISSYLAWYQQKPGKAPKLLIYAASTLQSGVPSRFSGSGSGTDFTLTISSLQPEDFATYYCQQLNSYPGYTFGQGTKLEIK
B11: Ab712 (antibody, V domains shown)
VH: QVQLVQSGSELKKPGASVKISCKASGYTFINHAINWVRQAPGQGLEWMGWINTNTGNPTYAPGFTGRFVFSLDTSVSTAYLQISSLKAEDTAVYYCARIPIRDYDYDGSGYYYFLDYWGQGTLVTVSS
VL: SYELTQDPAVSVALGQTVRITCQGDSLRSSSASWYQQKPGQAPVLVIYGKTNRPSGIPDRFSGSSSGNTASLTITGAQAEDEADYYCNSRDNSGNHPVVFGGGTKLTVL
B12: Ab287 (antibody, V domains shown)
VH: QVQLVQSGAEVKKPGSSVKVSCKASGDTFSSYAISWVRQAPGQGLEWMGRIILIFGVANYAQKFQGRVTITADKSTSTAYMELSSLRSEDTAVYYCARGGFYYDSSGYHLDYWGQGTLVTVSS
VL: EIVLTQSPGTLSLSPGERATLSCRPSQSVSSSYLAWYQQRPGQAPRLLIYGASSRATGIPDRFSGSGSGTDFTLTISRLEPEDFAVYYCHQYGSSPRTFGQGTKVEIK
B13: Ab176 (antibody, V domains shown)
VH: EVQLVESGGGLVQPGGSLRLSCAASGFTFSSYSMNWVRQAPGKGLEWVSYISGSSSTIYYADSVKGRFTISRDNAKNSLYLQMNSLRAEDTAVYYCVSSEWLLPRFFDYWGQGTLVTVSS
VL: QPVLTQEASVSGTVGQKVTLSCTGNRNNIGSYPVGWYQQISHGAPKTVMFGNSPPSGIPDRFFGSRSGTTASLTISGLQPEDEADYYCSTWDYSLSAVVFGGGTKLTVL
B14: Ab864 (antibody, V domains shown)
VH: EVQLVESGGGLVQPGRSLRLSCAASGFTFDDYAMHWVRQVPGKGLEWVSGISWNKGNIDYADSVKGRFTISRDNAKNSLYLQMNSLRPEDTGLYYCAKDCHYDSPGYFPNCLHSWGQGTLVTVSS
VL: EIVMTQSPSSLSASVGDRVTITCRASQGINTYLAWYQQKPGKAPKLLIYTASTLQSGVPSRFSGSGSGTDFTLTISSLQPEDFATYYCQQVHSYPLTFGGGTKVEIK
B15: Ab496 (antibody, V domains shown)
VH: EVQLVQSGPEVKKPGTSVKVSCKASGFIFTNSAVQWVRQARGQRLEWIGWIVVGSGNPNYAQKFQERVTITRDRSTSTAYMELSSLTSEDTAVYYCAAFPYYYDNSGSGPWGQGTLVTVSS
VL: DIQLTQSPSSLSASVGDRVTITCQASQDIRNNLNWYQQIPGKAPKLLIYDASNLETGVPSRFSGSASGTDFTFTISSLQPEDVATYYCQQYANLPPFTFGPGTKVDIK
B16: Ab830 (antibody, V domains shown)
VH: QVQLVQSGAEVKKPGSSVKVSCKTSGGTFTNYTISWVRQAPGQGLEWMGRIIPIFDIVNYAQKFQGRVTITADKSTSTTYMELSSLRSEDTAVYYCARDGVLYDTSGYLYDAFDIWGQGTMVTVSS
VL: DIQMTQSPSSLSASVGDRVTITCRASQGINNYLAWFQQKPGKAPKSLIYAASSLQSGVPPKFSGSGSGTDFTLTISSLQPEDFATYYCLHYNSYPWTFGQGTKVEIK
B17: Ab803 (antibody, V domains shown)
VH: EVQLVESGGGLVQPGRSLRVSCAASGFTFDDYAMHWVRQTPRKGLEWVAGISRNSAAIAYADSVKGRFTISRDNAKNSVFLQMNGLRADDTALYYCVKSPRYGWGSPDYSFDFWGRGTLVTVSS
VL: DIQLTQSPSSLSASVGDRVTITCRASQNIGTYLNWYQQEPGKAPKLLIYAASSLQSGVPSRFSGSGSGTDFTLTISSLQPEDFATYCCQQSFTTPLTFGQGTKVEIK
B18: Ab354 (antibody, V domains shown)
VH: QVQLVQSGAEVKKPGASVTVSCKASGFLFTGYYMHWVRQAPGQGLEWMGWINPNSGASNYTRKFQGRVTMTRDTSISATYMKLSRLTSDDTAVYYCARDLAFSMVRGALDYWGQGTLVTVSS
VL: QLVLTQPPSASGSPGQSVTISCTGTSSDVGGYNYVSWYQHHPGKAPKLMIYEVSKRPSGVPDRFSGSKSGNTASLTVSGLQAEDEADYYCNSYAGNNNWVFGTGTKVTVL
B19: Ab816 (antibody, V domains shown)
VH: QVQLVQSGAEVKKPGESLMISCKASGYNFRNYWIAWVRQMPGKGLEWMGIIHPGDSDIRYRPSLQGHVTISADKSITTAYLQWGSLKASDTAMYYCTRITTDADSSGLFHYWGQGTLVTVSS
VL: EIVLTQSPSTLSASVGDRVTITCRASQNIYTWLAWYQRKPGKAPKVLIYKASSLESGVPSRFSGSGSGTEFTLTISSLQPDDFATYYCQQYKSAWSFGQGTKVEIK

Tests used:
Assay in all cases: ACE2 competition, spike on 293T cells, antibody 4 µg/mL
[1] = biological target: T1, full-length spike protein of SARS-CoV-2 α strain (SARS-CoV-2 (α strain))
T1 construct: whole, on cells; Expressed in 293T cells

[2] = biological target: T2, full-length spike protein of SARS-CoV-2 β strain (SARS-CoV-2 (β strain))
T2 construct: whole, on cells; Expressed in 293T cells

[3] = biological target: T3, full-length spike protein of SARS-CoV-2 γ strain (SARS-CoV-2 (γ strain))
T3 construct: whole, on cells; Expressed in 293T cells

Binder	binding amount (%) of ACE2 protein [1] [%]	binding amount (%) of ACE2 protein [2] [%]	binding amount (%) of ACE2 protein [3] [%]
B1	4.4	7.1	
B2	0.6	1.8	2.4
B3	2.6	1.9	3.3
B4	0.3	0.3	0.4
B5			3.5
B6		79.1	90.9
B7	118		128
B8	8.3	3.4	5.3
B9	4.2	117	
B10	9.2	92.6	84.6
B11	4.4	3.8	8.1
B12		128	109
B13	10.8	18.6	
B14	0.4	1.3	2.4
B15		133	
B16	1.1	4.4	6.7
B17	0.9	1.4	1.8
B18		133	
B19	0.5	0.4	0.7
